The values that follow come from paper PMC5798227.

This test addresses DS-SOSIP.664 trimer (BG505) (HIV-1 BG505 (clade A)). Kind of test: cryo-EM structure.

The substance “4-domain soluble CD4 (cryo-EM sample) (from UniProt P01730) (receptor)” showed a stoichiometry N (CD4 per trimer) of 1.
